Values from PubChem BioAssay AID504761 (Drosophila RNAi Screening Center, 2011)
The screen tested about 22,000 reagents; shown is an unselected part of those that have a named target and a result. Over the whole deposit, 116 (0.52%) are marked active. 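Calls depend on retest data that are not deposited; infection was ranked per plate without normalising between plates; the unit of the infection score is not given.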 The raw values are shown without normalisation. Entries without a mark were called inactive. A plus sign joins genes that one reagent is predicted to hit. Not stated in the record: the amount of reagent, the time to read-out.

- Aim: 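Genome-wide fly cell screen for genes dengue virus requires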 (primary screen)
- Cells: D.Mel-2 cells from Drosophila
- Reagents: long dsRNA against Drosophila genes
- Challenge: infection with dengue virus type 2; dose and infection time not stated
- Detection: 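Per well on two replicate plates, imaging gave the percent of cells positive for viral envelope protein, ranked by infection, and a nuclear count of cells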
- Scale: infection score: higher = more virus-infected cells; cell count: higher = more cells in the well
- Call rule: 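Low infection ranks in the two replicates (chance level up to 0.065) followed by a retest with a 1.5-fold or larger significant decrease, p below 0.05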
- Meaning of the calls: active = confirmed: knock-down lowers infection; inactive = not picked or not confirmed

predicted target | amplicon | infection score, replicate 1 | infection score, replicate 2 | cell count, replicate 1 | cell count, replicate 2
fu | DRSC20333 | 6.75 | 2.98 | 5229 | 5504
fu | DRSC27965 | 8.6 | 8.17 | 4955 | 6355
CG8543 | DRSC10990 | 5.35 | 4.09 | 5925 | 6352
CG8543 | DRSC22809 | 1.25 | 29.2 | 6220 | 3526
CG8543 | DRSC25399 | – | 3.46 | – | 5917
Ptp61F | DRSC08683 | 2.37 | 3.5 | 5108 | 5576
Ptp61F | DRSC28719 | 4.52 | 0.21 | 1084 | 471
Dph5 | DRSC16653 | 4.06 | 3.52 | 6900 | 6157
Dph5 | DRSC27824 | 8.21 | 12.9 | 6969 | 6586
Sfxn2 | DRSC10718 | 2.87 | 6.06 | 5606 | 5116
RPA3 | DRSC19658 | 6.32 | 4.66 | 5787 | 5756
CG17283 | DRSC15219 | 2.07 | 1.58 | 581 | 570
CG32202 | DRSC09989 | 2.58 | 8.17 | 6621 | 6548
Tsp42Er | DRSC06183 | 2.59 | 12.9 | 6454 | 4564
sqd | DRSC15160 | 3.35 | 20.9 | 5829 | 5589
sqd | DRSC17066 | 4.01 | 3.13 | 6863 | 6961
sqd | DRSC29779 | 17.8 | 10.6 | 5909 | 5883
CG18745 | DRSC15382 | 5.15 | 13.2 | 6654 | 5838
CG18745 | DRSC30088 | 13.8 | 22.2 | 6515 | 5096
CAH6 | DRSC15505 | 7.28 | 2.91 | 2529 | 6908
qsm | DRSC05896 | 4.92 | 4.35 | 6447 | 6394
qsm | DRSC06393 | 0.58 | 2.5 | 6018 | 6122
qsm | DRSC25212 | 1.31 | 3.05 | 6274 | 6032
Gr64d + Gr64e | DRSC08446 | 2.49 | 30.2 | 5471 | 6096

The list goes on (5 carried over from the part before).
predicted target | amplicon | infection score, replicate 1 | infection score, replicate 2 | cell count, replicate 1 | cell count, replicate 2
CAH6 | DRSC15505 | 7.28 | 2.91 | 2529 | 6908
qsm | DRSC05896 | 4.92 | 4.35 | 6447 | 6394
qsm | DRSC06393 | 0.58 | 2.5 | 6018 | 6122
qsm | DRSC25212 | 1.31 | 3.05 | 6274 | 6032
Gr64d + Gr64e | DRSC08446 | 2.49 | 30.2 | 5471 | 6096
Mal-B2 | DRSC02417 | 4.37 | 10.5 | 6047 | 6319
CG11227 | DRSC20476 | 3.86 | 7.6 | 5599 | 5657
CG11227 | DRSC29906 | 35.5 | 13.8 | 3825 | 6694
amd | DRSC02608 | 2.14 | 4.09 | 6037 | 6677
amd | DRSC03483 | 5.76 | 3.38 | 5957 | 6634
Jon65Aii | DRSC10665 | 5.67 | 5.68 | 6152 | 5899
CG5928 | DRSC18391 | 4.54 | 8.06 | 6447 | 6577
CG5928 | DRSC25853 | 1.74 | 4.52 | 6271 | 6749
CG17959 | DRSC18142 | 2.32 | 1.79 | 6034 | 5862
CG17959 | DRSC28767 | 0.77 | – | 388 | 340
CG5849 | DRSC15893 | 9.49 | 0.62 | 5016 | 6972
Pcyt1 | DRSC08157 | 4.05 | 6.59 | 4296 | 2927
Pcyt1 | DRSC27869 | 4.54 | 6.08 | 5709 | 5856
nom | DRSC16389 | 4.23 | 6.12 | 6077 | 5915
nom | DRSC26026 | 12.8 | 4.78 | 5324 | 6048
